This note sets out measurements from US20260069689A1, “ANTI-SARS-COV-2-SPIKE GLYCOPROTEIN ANTIBODIES AND ANTIGEN-BINDING FRAGMENTS” (Regeneron, published 2026).

To fix the notation:
B1: mAb15160 (antibody, V domains shown)
VH: EVQLVESGGGLVQPGGSLRLSCSASGFTFSRYAMYWVRQAPGKGLEYVSAISSDGGSTYDADSVKGRFTISRANSKNTLYLQMSSLRAEDTAVYYCVKGLRELLYYYYGMDVWGQGTTVTVSS
VL: DIQMTQSPSSLSASVGDRVTITCRAGQSISSFLNWYQQKPGKAPKLLIYAASSLQSGVPSRFSGSGSGTDFTLTISSLQPEDFATYYCQQSYITPFTFGPGTKVDIKR
B2: mAb15157 (antibody, V domains shown)
VH: EVQLVESGGALVQPGGSLRLSCAASGFPFTIYAMTWVRQAPGKGLEWVSVITGSGDSTYYADSVKGRFTISRDNSKNTLYLQMNSLRAEDTAVYYCVKTGEGFFYYYYGMDVWGQGTTVTVSS
VL: QSVLTQPPSVSAAPGQKVTISCSGSSSNIGNSYISWYQQLPGTAPKLLIYVNNKRPSGIPDRFSGSKSGTSATLGITGLQTGDEADYYCGTWDSSLSAGVFGSGTKVTVLG
B3: mAb14285 (antibody, V domains shown)
VH: QVQLVQSGAEVKKPGASVKVSCKASGYTFTGYFIHWVRQAPGQGLEWMGWISPISGGTNYAQKFQGRVTVTRDTSITTAYMELSRLTSDDTAVYHCAREGGTWKGDFDYWGQGTLVTVSS
VL: QSALTQPASVSGSPGQSITISCTGTSSDVESYNLVSWYQQHPGKAPKLMIYEGSKRPSGVSNRFSGSKSGNTASLTISGLQAEDEADYYCSSYAGSSTWVFGGGTKLTVLG
B4: mAb15165 (antibody, V domains shown)
VH: EVQLVESGGGLVQPGGSLRLSCAASGFTVSSNYMSWVRQAPGKGLEWVSAIYSGDSTYYADSVKGRFTISKDNSKNTLYLQMNSLRGEDTAVYYCARLGGALQAYDGAFDYWGQGTLATVSS
VL: QSALTQPASVSGSPGQSITISCTGTSSDFGSYNLVSWYQQHPGKAPKLMIYEGNKRPSGVSIRFSGSKSGNTASLTISGLQAEDEADYYCSSYAGSSTWVFGGGTKLTVLG
B5: mAb15164 (antibody, V domains shown)
VH: EVQLVESGGGLVQPGGSLRLSCAASGFAVSSNYMTWVRQAPGKGLEWVATIYSGDSTYYADSVKGRFTISRHNSKNTLSLQMNSLRADDTAIYYCARLSGVLSGTYNGAFDIWGQGTMVTVSS
VL: QSALTQPASVSGSPGQSITISCTGTSSDFGNYNIVSWYQQHPGQAPKVMIYEGNKRPSGVSNRFSGSKSGHTASLTISGLQAEDEADYYCSSYAGSSTWVFGGGTKLTVLG
B6: mAb15166 (antibody, V domains shown)
VH: EVQLVESGGGLVQPGGSLRLSCAASGFTVTSNYMSWVRQAPGKGLEWVSAIYSGESTYYADSVKGRFTISRDSSKNTLYLQMNSLRVEDTAVYYCASIHDYSNYVGGFDPWGQGTLVTVSS
VL: QSALTQPASVSGSPGQSITISCTGPSSDFGSYNLVSWYQQHPGKAPKLMIYEGTKRPSGVSNRFSGSKSGNTASLTISGLQAEDEADYYCSSYAGSSTWVFGGGTKLTVLG
B7: mAb14286 (antibody, V domains shown)
VH: QVQLVQSGAEVKKPGASVKVSCKASGYTFTDYFIHWVRQAPGQGLEWMGWINPTSGGTNYAQKFRGRVTMTRDTSISTAYVELSRLRSDDTALYYCARDLPFYSDTKQFDYWGQGTLVTVSS
VL: QSALTQPASVSGYPGQSITISCTGTSSDVGGYNYVSWYQQHPGKAPKLMIFDVSNRPSGVSNRFSGSKSGNTASLTFSGLQAEDEADYYCSSYTSSSTLVFGGGTKLTVLG
B8: mAb15150 (antibody, V domains shown)
VH: EVQLVETGGGLIQPGGSLRLSCAAPGFIVSSNYMSWVRQAPGKGLEWVSLLYPGGSTYYADSVKGRFTISRDNSKNTLYLQMNSLRADDTAVYYCARVLPIVEDHFDYWGQGTLVTVSS
VL: DIQLTQSPSFLSASVGDRVTITCRASQGMSSYLAWYQKKPGKAPKLLIYGATILQSGVPSRFSGSGSGTEFTLTISSLQPEDFATYYCQQLNSDPLYMYTFGQGTKLEIKR
B9: mAb14282 (antibody, V domains shown)
VH: QVQLVQSGAEVKKPGASVKVSCKASGYIFTDHYMHWVRQAPGQGLEWMGWINPNSGATNYAQNFQGRVTMTRDTSIITVYMELSRLRSDDTAVYYCARDSSPYMIRYTMDVWGQGTTITVSS
VL: QSALTQPASVSGSPGQSITISCTGTSSDVGSYNLVSWYQQHPGKAPKLMIYELTKRPSGVSNRFSGSKSGNTASLTISGLQAEDEADYYCSSYRGSVTDVVFGGGTKLTVLG
B10: mAb15158 (antibody, V domains shown)
VH: EVQLVESGGGLVQPGGSLRLSCAASGFSFSSNWMSWVRQAPGKGLEWVGNINQDGSEKYYVDSVEGRFTISRDNAKKSLYLQMNSLRAEDTAVYYCARDLGVLWFGDFVDWGQGALVTVSS
VL: DIQMTQSPSSLSASVGDRVTITCRASQAISNSLAWYQQKPGKAPKLLLYAASTLESGVPSRFSGSGSGTDYTLTISSLQPEDFATYYCLQYYGSPRTFGQGTKVEIKR
B11: mAb15159 (antibody, V domains shown)
VH: EVQLVESGGGLVQPGGSLRLSCAASGITVSSNYMTWVRQAPGKGLEWVSLIYSGGSTFYADSVRGRFTISRDNSKNTLYLQMNSLRAEDTAVYYCARDLVVYGMDVWGQGTTVTVSS
VL: DIQLTQSPSSLSASVGDRVTITCRASQGISSYLAWYQQKPGKAPKLLIYAASTLQSGVPSRFSGSGSGTDFTLTISSLQPEDFATYYCQHLNSDPHTFGQGTKLEIKR
B12: mAb15170 (antibody, V domains shown)
VH: EVQLVESGGGLVQPGGSLRLSCAATGITVSSNYMSWVRQAPGKGLEWVSLIYSGGSTFYADSVKGRFTISRHNSKNTLYLQMSSLRAEDTAVYYCARDLVDFGMDVWGQGTTVTVSS
VL: DIQLTQSPSSLSASVGDRVTITCRASQGISNYLAWYQQKPGKAPKLLIYAASTLQSGVPSRFSGSGSGTDFTLTISSLQPEDFGTYYCQQLNSDSPTFGQGTKVEIKR
B13: mAb14281 (antibody, V domains shown)
VH: QVQLVQSGADVKKPGASVKVSCKTSGYIFTGYYIHWVRQAPGQGLEWMGWINPNSGGTNSAQKFQGRVTMTRDTSISTVYMELSRLRSDDTAVYYCAKSNSFSVLDYNFDYWGQGTLVTVSS
VL: SSELTQDPAVSVALGQTVRITCQGDSLRSYYASWYQQKPGQAPVLVIYDKNNRPSGIPDRFSGSSSGNTASLTITGAQAEDEADYYCNSRDSSRNHLVVFGGGTKLTVLG
B14: mAb14292 (antibody, V domains shown)
VH: EVQLVESGGGLVQPGGSLRLSCVASGFAFSTYEMNWVRQAPGKGLEWVSYISSSGSTIYYADSVKGRLTISRDNVKNSLYLQMNSLRVEDTAIYYCARDAIRNNDILTDPATFDPWGQGTLVTVSS
VL: not shown
B15: mAb14234 (antibody, V domains shown)
VH: QVQLVESGGGVVQPGRSLRLSCAASGFTFSSYGIHWVRQAPGKGLEWVAIIWYDGSEKYYADSVKGRFTISRDNSKNTLFLQMNSLEAEDTAVYYCARGPDLLTGYYNYFYYGMDVWGQGTTVTVSS
VL: QSVLTQPPSVSGAPGQRVTISCTGSSSNIGIGYDVHWYQQLPGTVPKLLIYGNTNRPSGVPDRFSGSKSGTSASLAITGLQAEDEADYYCQSYDSSLSSYVFGTGTKVTVLG
B16: mAb15162 (antibody, V domains shown)
VH: EVQLVETGGGLIQPGGSLRLSCAASEFIVSRNYMSWVRQAPGKGLEWVSLIYSGGSTYYADSVKGRFTISRDNSKNILYLQMNSLRAEDTAVYYCARDRGGISDYWGQGTLVTVSS
VL: DIQMTQSPSSLSASVGDRVTITCQASQDINKYLNWFQQKPGKAPKLLIYDASNLETGVPSRFSGSGSGTDFTFTISSLQPEDIATYYCQQYDNLPRTFGQGTKLEIKR
B17: mAb14280 (antibody, V domains shown)
VH: QVQLVQSGAEVKKPGASVRVSCKASGYTFTGNYIHWVRQAPGQGLEWMAWINPNSGGKNYAQKFQGRVTLTRDTSVNTAYMELSRLRSDDTAMYYCARDVNYNILTGPGGLWGQGTLVTVSS
VL: QSALTQPPSASGSPGQSVTISCTGTSSDVGGYNFVSWYQQHPGKAPKLMIYEVSKRPSGVPDRFSGSKSGNTASLTVSGLQAEDEADYYCSSYAGSNNFVFGTGTKVTVLG
B18: mAb15163 (antibody, V domains shown)
VH: EVQLVETGGGLIQPGESLRLSCAASGFIVSTNYMNWVRQAPGKGLEWVSVIYRGGSTYYADSVKGRFTISRDNSKNTLFLQMNSLRAEDTAVYYCARGHEDFDYDTPASGAFDIWGQGTMVTVSS
VL: QSALTQPPSASGSPGQSVTISCTGTSSDVGGHNYVSWYQQHPGKAPKVMIYEVSKRPSGVPDRFSGSKSGNTASLTVSGLQAEDEADYYCSSYAGSNKFVFGTGTKVTVLG
B19: mAb15156 (antibody, V domains shown)
VH: QLQLQESGPGLVKSSETLSLTCTVSASITGSTYYWGWIRQPPGKGLEWIGSIYYSGTTYYKASLKSRVTISVDTSKNQFSLKLTSVTVADTAVYYCVSHLLGNYHKYGMDVWGQGTTVTVSS
VL: QSVLTQPPSASGTPGQRVTISCSGSRSNIGINTVNWYQQFPGTALNLLIFSDNQRPSGVPDRFSGSKSGTSASLAISGLQSEDEADYYCAAWDDSLNGPDWVFGGGTKLTVLG
B20: mAb14230 (antibody, V domains shown)
VH: EVQLVESGGGLIQPGRSLRLSCAASGFTFDDYAMHWVRQAPGKGLEWVSGISWNSVSIDYADSVKGRFTISRDNAKNSLYLQMTSLTVEDTALYYCAKAFGYETLTGSDYFAYWGPGTLVTVSS
VL: EIVLTQSPGTLSLSPGERATLSCRASQTVISTYLAWYQQKPGQSPRLLIYGASSRATGIPDRFSGSGSGTDFTLTISRLEPEDFAVYYCQQYGSSPQLTFGGGTKVEIKR
B21: mAb15161 (antibody, V domains shown)
VH: EVQLVESGGGLVQPGGSLRLSCAASGFTFSSYEMNWVRQAPGKGLEWVSYISSSGSILYYADSVKGRFTASRDNAKNSLYLQMNSLRAEDTGVYYCARREYQLLRPFEFWGQGTLVTVSS
VL: not shown

This experiment deals with SARS-COV-2 RBD extracellular domain expressed with a C-terminal myc-myc-hexahistidine tag (SARS-COV-2 RBD-mmH) (SARS-CoV-2). As to the kind of experiment: SPR Biacore, mAb captured on anti-hFc, RBD-mmH analyte, 37 C.
In the case of B1, the “RBD monomer bound at 50 nM (RU)” value was found to be 79.3 RU. The value for B2 was 65.7 RU; that for B3 was 166 RU; that for B4 was 82.5 RU. As to B5, the “RBD monomer bound at 50 nM (RU)” value was 93.4 RU. With B6, the “RBD monomer bound at 50 nM (RU)” value was found to be 19.7 RU.

With B7, the “RBD monomer bound at 50 nM (RU)” value is 169 RU. Consider B8, for which the “RBD monomer bound at 50 nM (RU)” value worked out at 64.9 RU.

As to B9, the “RBD monomer bound at 50 nM (RU)” value was 186 RU. Regarding B10, the “RBD monomer bound at 50 nM (RU)” value came out at 44.3 RU. B11: the “RBD monomer bound at 50 nM (RU)” value is 42 RU. In the case of B12, the “RBD monomer bound at 50 nM (RU)” value turned out to be 56.3 RU. Consider B13, for which the “RBD monomer bound at 50 nM (RU)” value was determined as 182 RU.

Consider B14, for which the “RBD monomer bound at 50 nM (RU)” value is 10.4 RU. Consider B15, for which the “RBD monomer bound at 50 nM (RU)” value was determined as 162 RU. Regarding B16, the “RBD monomer bound at 50 nM (RU)” value amounted to 38.9 RU. The value for B17 was 176 RU; that for B18 was 72.7 RU.

As to B19, the “RBD monomer bound at 50 nM (RU)” value was 107 RU. Turning to B20, the “RBD monomer bound at 50 nM (RU)” value was determined as 133 RU. On to B21, for which the “RBD monomer bound at 50 nM (RU)” value was 61.1 RU.
